Measurements published in article PMC7962642 (Molecules, 2021).

Assay: general procedure: Fmoc solid-phase peptide synthesis; Rink Amide MBHA LL resin (100–200 mesh, 0.33 mmol/g, NovaBiochem); HCTU/NMM
Conditions: whole synthesis, 220 nm

Question: For FKLRAKIKVRLRAKIKL-NH2, which “final HPLC purity” value is on record?
Answer: 100%

Question: With KKLFKKILKYL-NH2 as the substance, how does the “final HPLC purity” value read?
Answer: 100%

Question: For KKLLKWLLKLL-NH2, which “final HPLC purity” value is on record?
Answer: 98.6%

Question: Which “final HPLC purity” value does the source give for KWKLFKKIGAVLKVL-NH2 here?
Answer: 99.0%

Question: For LLLFLLKKRKKRKY-NH2, which “final HPLC purity” value is on record?
Answer: 100%

Question: For RRLFRRILRWL-NH2, which “final HPLC purity” value is on record?
Answer: 100%
